Experimental data reported in article PMC3842230 (Biochemistry, 2013).

Molecular target: Cys-less NorM (Vc-NorM) (Vibrio cholerae serotype O1, UniProt Q9KRU4, C192A/C326T/C365V)
Details: read-out: Apparent KD, CW-EPR, 7 μM Ruboxyl, 0-80 μM NorM

Ruboxyl
Kd (GF buffer with 20 mM NaCl): 1500 nM | Kd (Na+-free GF buffer): 1800 nM

Like-named read-outs stand apart in the source and are kept apart here.
